Anti-infective test results gathered from many reports (values: NIAID ChemDB through PubChem).

Common to all: tests on isolated targets; species: HIV-1; protein: Protease; read-out: Ki

Blank or dashed fields: not listed here.

structure | mutations | read by | conditions | strain | result
CC(C)CN(C[C@@H](O)[C@H](Cc1ccccc1)NC(=O)O[C@H]1CO[C@H]2OCC[C@H]21)S(=O)(=O)c1ccc2[nH]c(O)c(C=NCc3nc4ccccc4[nH]3)c2c1 |  | substrate cleavage |  | HXB2 | <0.0001 µM
COc1ccc(S(=O)(=O)N(C[C@@H](O)[C@H](Cc2ccccc2)NC(=O)OC(C)(C)C)CC(C)(C)CCC#N)cc1 |  | fluorescence |  |  | <0.001 µM
CC(C)[C@H](NC(=O)[C@@H](NC(=O)[C@@H]1CCCN1C[C@H](Cc1ccccc1)NC(=O)[C@H](C)NC(=O)[C@H](C)NC(=O)[C@@H](N)CO)C(C)C)C(N)=O |  | HPLC |  |  | 19 µM
Nc1cccc(C(=O)N[C@H](Cc2ccccc2)C[C@H](O)[C@H](Cc2ccccc2)NC(=O)c2cccc(N)c2)c1 | PR-V821 | substrate cleavage |  |  | 0.096 µM
CCCC1(CCc2ccccc2)CC(=O)C(C(CC)c2cccc(NS(=O)(=O)c3ccc(C(F)(F)F)cn3)c2)=C(O)C1 |  | substrate cleavage |  |  | 0.012 µM
CC(C)[C@H](NC(=O)[C@H](Cc1ccccc1)C[C@H](O)[C@H](Cc1ccccc1)NC(=O)[C@H](C)NC(=O)OCc1ccccc1)C(N)=O |  | HPLC |  |  | 0.0007 µM
CC[C@@H](C[C@H](O)[C@H](Cc1ccccc1)NC(=O)COc1c(C)cccc1C)NC(=O)[C@@H](NS(=O)(=O)c1ccccc1)C(C)C |  | substrate cleavage |  |  | 0.012 µM
CC(C)(CCC#N)CN(C[C@@H](O)[C@H](Cc1ccccc1)NC(=O)O[C@H]1CO[C@H]2OCC[C@H]21)S(=O)(=O)c1cccc(N)c1 |  | fluorescence |  |  | <0.001 µM
COc1ccc2c(c1)OCCCC/C=C\CC(C)CN(C[C@@H](O)[C@H](Cc1ccccc1)NC(=O)O[C@H]1CO[C@H]3OCC[C@H]31)S2(=O)=O |  | substrate cleavage |  |  | 0.058 µM
CC(C)C[C@H](NC(=O)[C@@H](NC(=O)CCCCCCCCCCCCCCC(=O)N[C@@H](CC(N)=O)C(=O)N[C@@H](Cc1ccccc1)C(=O)O)C(C)C)C(=O)N[C@@H](Cc1ccccc1)C(N)=O |  |  |  |  | 0.89 µM
COC(=O)NCCC(C)(C)CN(C[C@@H](O)[C@H](Cc1ccccc1)NC(=O)O[C@H]1CO[C@H]2OCC[C@H]21)S(=O)(=O)c1cccc(N)c1 |  | fluorescence |  |  | <0.001 µM
COc1ccc(S(=O)(=O)N(CC(O)CN2C(=O)C(CC(N)=O)C[C@@H]2Cc2ccccc2)CC2CCCC2)cc1 |  | HPLC |  |  | 0.03 µM
COC(=O)NCCCC(C)(C)CN(C[C@@H](O)[C@H](Cc1ccccc1)NC(=O)O[C@H]1CO[C@H]2OCC[C@H]21)S(=O)(=O)c1cccc(N)c1 |  | fluorescence |  |  | <0.001 µM
COc1ccc(S(=O)(=O)N(CC(C)C)C[C@@H](O)[C@H](Cc2ccccc2)NC(=O)OCO[C@H]2C[C@H]3OCC4(CNC(=O)O4)[C@H]3C2)cc1 |  | substrate cleavage / fluorescence |  |  | 0.00029 µM
CC(C)[C@H](NC(=O)[C@@H](NC(=O)CCCCCCCCCCCCCCC(=O)N[C@@H](CC(N)=O)C(=O)N[C@@H](Cc1ccccc1)C(=O)O)C(C)O)C(=O)N[C@@H](Cc1ccccc1)C(N)=O |  |  |  |  | 1.35 µM
COc1ccc(S(=O)(=O)N(CC(O)CN2[C@@H](Cc3ccccc3)CN(Cc3ccccc3)S2(=O)=O)CC2CCCC2)cc1 |  | HPLC |  |  | >10 µM
CC(C)CN(C[C@@H](O)[C@H](Cc1ccccc1)NC(=O)O[C@H]1CO[C@H]2OCC[C@H]21)S(=O)(=O)c1ccc(-c2cnc([C@@H](C)O)o2)cc1 |  | substrate cleavage / fluorescence |  |  | 0.0000373 µM
CC(C)CN(C[C@@H](O)[C@H](Cc1ccccc1)NC(=O)O[C@H]1CO[C@H]2OCC[C@H]21)S(=O)(=O)c1ccc2c(c1)/C(=C/N(C)C)C(=O)N2 | L10 L24 M36 I54 L63 A71 V82 I84 | substrate cleavage |  |  | <0.0001 µM
C=CCCOC(=O)NCCC(C)(C)CN(C[C@@H](O)[C@H](Cc1ccccc1)NC(=O)O[C@H]1CO[C@H]2OCC[C@H]21)S(=O)(=O)c1ccc2c(c1)OCO2 |  | fluorescence |  |  | <0.001 µM
COc1ccc(S(=O)(=O)N(CC(C)C)C[C@@H](O)[C@H](Cc2ccccc2)NC(=O)O[C@H]2CC3COC4OC2CC34)cc1 |  | substrate cleavage / fluorescence |  | LAI | 0.000034 µM
COc1ccc(S(=O)(=O)N(CC(C)C)C[C@@H](O)[C@H](Cc2ccccc2)NC(=O)O[C@H]2CCCOCC2)cc1 |  | FRET |  | LAI | 0.00081 µM
COc1ccc2c(c1)OCCCCCN(C[C@@H](O)[C@H](Cc1ccccc1)NC(=O)O[C@H]1CO[C@H]3OCC[C@H]31)S2(=O)=O |  | substrate cleavage |  |  | 0.00015 µM
Cc1cccc(C)c1OCC(=O)N[C@@H](Cc1ccccc1)[C@@H](O)C[C@H](Cc1ccccc1)NC(=O)[C@@H](NS(=O)(=O)c1c(C)noc1C)C(C)C |  | substrate cleavage |  |  | 0.115 µM
CON(C)C(=O)OCCCCC(C)(C)CN(C[C@@H](O)[C@H](Cc1ccccc1)NC(=O)O[C@H]1CO[C@H]2OCC[C@H]21)S(=O)(=O)c1ccc2c(c1)OCO2 |  | fluorescence |  |  | <0.001 µM
CC[C@H](C)[C@H](NC(=O)[C@@H]1CCCN1C[C@H](Cc1ccccc1)NC(=O)[C@H](CC(N)=O)NC(=O)[C@H](CCC(N)=O)NC(=O)[C@H](CO)NC(=O)[C@@H](N)C(C)C)C(=O)N[C@H](C(=O)O)C(C)C |  |  |  |  | 3.52 µM
COc1ccc(S(=O)(=O)N(CC(O)CN2C(=O)C(Cc3ccccc3)NC[C@@H]2Cc2ccccc2)CC2CCCC2)cc1 |  | HPLC |  |  | >20 µM
CC(C)(CCNC(=O)NC(C)(C)C)CN(C[C@@H](O)[C@H](Cc1ccccc1)NC(=O)O[C@H]1CO[C@H]2OCC[C@H]21)S(=O)(=O)c1ccc2c(c1)OCO2 |  | fluorescence |  |  | <0.001 µM
CCC(C)[C@H](NC(=O)C(Cc1ccccc1)NCC(=O)[C@H](Cc1ccccc1)NC(=O)[C@@H](NC(=O)C(CC(C)C)NC(C)=O)C(C)C)C(=O)N[C@H](C(N)=O)C(C)C |  | substrate cleavage |  |  | 60 µM
CCCCNC(=O)OCCCCC(C)(C)CN(C[C@@H](O)[C@H](Cc1ccccc1)NC(=O)O[C@H]1CO[C@H]2OCC[C@H]21)S(=O)(=O)c1ccc2c(c1)OCO2 |  | fluorescence |  |  | <0.001 µM
CCC(C)[C@@H]1NC(=O)C(NCC(O)[C@@H]2Cc3ccc(cc3)OCCCCC(=O)N[C@@H](C(C)C)C(=O)N2)Cc2ccc(cc2)OCCCNC1=O |  | substrate cleavage |  |  | 0.003 µM
CC(C)(CCCNC(=O)C1CCCC1)CN(C[C@@H](O)[C@H](Cc1ccccc1)NC(=O)O[C@H]1CO[C@H]2OCC[C@H]21)S(=O)(=O)c1ccc2c(c1)OCO2 |  | fluorescence |  |  | <0.001 µM
Cc1cccc(C)c1OCC(=O)N[C@@H](Cc1ccccc1)[C@@H](O)C[C@H](Cc1ccccc1)NC(=O)[C@@H](NS(=O)(=O)c1ccc(C(F)(F)F)cn1)C(C)C |  | substrate cleavage |  |  | 0.0006 µM
CSC(=O)NCCCCC(C)(C)CN(C[C@@H](O)[C@H](Cc1ccccc1)NC(=O)O[C@H]1CO[C@H]2OCC[C@H]21)S(=O)(=O)c1cccc(N)c1 |  | fluorescence |  |  | <0.001 µM
O=C(N[C@@H](Cc1ccccc1)[C@H](O)[C@H](O)[C@@H](Cc1ccccc1)NC(=O)c1ccc(O)cc1)c1ccc(O)cc1 |  | substrate cleavage |  |  | 0.276 µM
COC(=O)[C@@H](NC(=O)[C@@H](NC(=O)CC[C@H](O)[C@H](Cc1ccccc1)NC(=O)[C@H](C)NC(=O)[C@H](C)NC(=O)OCc1ccccc1)C(C)C)C(C)C |  | HPLC |  |  | 0.048 µM
Cc1cc2c(cc1C)N=Cc1c(ccc3ccccc13)OCCOc1c3cc(C(C)(C)C)cc1Cc1cc(C(C)(C)C)cc(c1O)Cc1cc(C(C)(C)C)cc(c1OCCOc1ccc4ccccc4c1C=N2)Cc1cc(C(C)(C)C)cc(c1O)C3 |  | FRET / fluorescence |  |  | 28.8 µM
CC(C)CN(C[C@@H](O)[C@H](Cc1cc(F)cc(F)c1)NC(=O)O[C@H]1CO[C@H]2OC[C@H](NC(C)C)[C@H]21)S(=O)(=O)c1ccc2nc(NC3CC3)sc2c1 |  | substrate cleavage / fluorescence |  |  | 0.0001 µM
CC[C@H](C)[C@H](NC(=O)OCc1ccccc1)C(=O)N[C@@H](Cc1ccccc1)C(=O)N[C@@H]1[C@H](CC(=O)N[C@H](C(=O)OC)C(C)C)CC[C@H]1O |  | absorbance |  |  | 2 µM
CC[C@H](C)[C@H](NC(=O)[C@@H](C[C@H](O)[C@H](CC1CCCCC1)NC(=O)CC(C)(C)C)C(C)C)C(=O)NCc1ccccn1 |  |  |  |  | 0.08 µM
CC[C@H](C)[C@@H](NC(=O)[C@@H](C[C@H](O)[C@H](CC(C)C)NC(=O)[C@H](Cc1cnc[nH]1)NC(=O)[C@H](Cc1ccccc1)NC(=O)[C@@H]1CCCN1C(=O)[C@@H](N)Cc1cnc[nH]1)C(C)C)C(=O)N[C@@H](Cc1cnc[nH]1)C(=O)O |  | HPLC | pH 4.7 |  | 0.005 µM
CC(C)(CCOC(=O)NN)CN(C[C@@H](O)[C@H](Cc1ccccc1)NC(=O)O[C@H]1CO[C@H]2OCC[C@H]21)S(=O)(=O)c1ccc2c(c1)OCO2 |  | fluorescence |  |  | <0.001 µM
CC(=O)c1ncc(-c2ccc(S(=O)(=O)N(CC(C)C)C[C@@H](O)[C@H](Cc3ccccc3)NC(=O)O[C@H]3CO[C@H]4OCC[C@H]43)cc2)o1 |  | substrate cleavage / fluorescence |  |  | 0.000119 µM
CC(C)(CCCCNC(=O)NCc1ccccc1)CN(C[C@@H](O)[C@H](Cc1ccccc1)NC(=O)O[C@H]1CO[C@H]2OCC[C@H]21)S(=O)(=O)c1ccc2c(c1)OCO2 |  | fluorescence |  |  | <0.001 µM
C=CCCCCOc1cc(OC)ccc1S(=O)(=O)N(CC(C)CC=C)C[C@@H](O)[C@H](Cc1ccccc1)NC(=O)O[C@H]1CO[C@H]2OCC[C@H]21 |  | substrate cleavage |  |  | 0.0037 µM
CC(C)(CCCOC(=O)NCCO)CN(C[C@@H](O)[C@H](Cc1ccccc1)NC(=O)O[C@H]1CO[C@H]2OCC[C@H]21)S(=O)(=O)c1ccc2c(c1)OCO2 |  | fluorescence |  |  | <0.001 µM
COc1ccc(S(=O)(=O)N(CC(O)CN2C(=O)C(CCCO)C[C@@H]2Cc2ccccc2)CC2CCCC2)cc1 |  | HPLC |  |  | >10 µM
CN=C(NC#N)NCCCCCC(C)(C)CN(C[C@@H](O)[C@H](Cc1ccccc1)NC(=O)O[C@H]1CO[C@H]2OCC[C@H]21)S(=O)(=O)c1ccc2c(c1)OCO2 |  | fluorescence |  |  | <0.001 µM
COc1ccc(S(=O)(=O)N(CC(C)C)C[C@@H](O)[C@H](Cc2ccccc2)NC(=O)OCO[C@H]2C[C@H]3OCC4(CC[C@H](OC)O4)[C@H]3C2)cc1 |  | substrate cleavage / fluorescence |  |  | 0.00038 µM
COc1ccc(S(=O)(=O)N(C[C@@H](O)[C@H](Cc2ccccc2)NC(=O)O[C@H]2CO[C@H]3OCC[C@H]32)CC(C)(C)CCNC(=O)NCC(N)=O)cc1 |  | fluorescence |  |  | <0.001 µM
CC(C)CN(C[C@@H](O)[C@H](Cc1ccccc1)NC(=O)O[C@H]1CO[C@H]2OCC[C@H]21)S(=O)(=O)c1ccc(C(N)=O)cc1 |  | substrate cleavage / fluorescence |  |  | 0.0000089 µM
CNc1cccc(S(=O)(=O)N(C[C@@H](O)[C@H](Cc2ccccc2)NC(=O)O[C@H]2CO[C@H]3OCC[C@H]32)CC(C)(C)CCNC(=O)OC)c1 |  | fluorescence |  |  | <0.001 µM
CC(C)[C@H](NC(=O)[C@H](C)C[C@H](O)[C@H](Cc1ccccc1)NC(=O)[C@H](C)NC(=O)OCc1ccccc1)C(N)=O |  | HPLC |  |  | 0.05 µM
CNc1cccc(S(=O)(=O)N(C[C@@H](O)[C@H](Cc2ccccc2)NC(=O)O[C@H]2CO[C@H]3OCC[C@H]32)CC(C)(C)CCN)c1 |  | fluorescence |  |  | <0.001 µM
CC(C)(C)OC(=O)N1C2C3(CO)C(c4ccccc4)C4(CO)C1C1(CO)C(c5ccccc5)C2(CO)C3N(C(=O)OC(C)(C)C)C41 |  | absorbance |  |  | 9.6 µM

Conditions beyond the fields shown may differ between rows.